## Potato spindle tuber viroid, loop 27: variant abundance in plants

Data from the supplement of Wu et al. 2024, doi:10.1371/journal.ppat.1012142.

The pool varies loop 27 of the PSTVd intermediate strain in the pattern UNNNNA; wild type is UUUUCA (5' to 3', with the closing base pair).

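A pool of all variants was put on leaves of three Nicotiana benthamiana plants. Samples came from the inoculated region at 5 days, the leaf margin at 10 and upper systemic leaves at 12.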

Numbers give reads per thousand; 0 = not seen among the reads, higher = more abundant.
Each value is the mean of three plants.
"Pool" is the share in the plasmid pool used as inoculum, on the same scale.
The inoculated region was read from the minus strand, the other sites from the plus strand.
IR is the inoculated region, LM the leaf margin, Sys the systemic leaves.

* UUGACA (pool 1.30) -> IR 2.13; LM 0.303; Sys 0.0638
* UACUUA (pool 2.19) -> IR 1.17; LM 0.0514; Sys 0
* UACAAA (pool 2.83) -> IR 2.16; LM 0.217; Sys 0.0617
* UAGUCA (pool 2.00) -> IR 2.68; LM 0.177; Sys 0.0895
* UAUCAA (pool 2.23) -> IR 2.10; LM 0.110; Sys 0.00656
* UUUACA (pool 0.136) -> IR 0.156; LM 0.660; Sys 0.525
* UACCGA (pool 1.41) -> IR 1.62; LM 0.0258; Sys 0.0170
* GUGAUA (pool 0.272) -> IR 0.129; LM 0.0212; Sys 0.00509
* UGUACA (pool 0.842) -> IR 1.60; LM 0.289; Sys 0.0758
* UACUAC (pool 0.0272) -> IR 0; LM 0; Sys 0
* CAGUUA (pool 0.0407) -> IR 0; LM 0; Sys 0
* UCAUCA (pool 1.09) -> IR 0.564; LM 0.143; Sys 0.0170
* UUAUAA (pool 7.77) -> IR 4.77; LM 0.827; Sys 0.189
* UUUAAA (pool 5.55) -> IR 2.13; LM 0.517; Sys 0.178
* UCCGUA (pool 2.35) -> IR 0.412; LM 0.0212; Sys 0.0102
* UUUAUA (pool 4.25) -> IR 7.48; LM 0.374; Sys 0.114
* UAUCUA (pool 2.97) -> IR 2.58; LM 0.0797; Sys 0.0835
* UCUUUA (pool 4.47) -> IR 4.66; LM 0.141; Sys 0.0496
* UAAACA (pool 1.86) -> IR 1.68; LM 0.460; Sys 0.0226
* UGCUGA (pool 2.05) -> IR 2.41; LM 0.0323; Sys 0.0233
* UGGUCA (pool 3.72) -> IR 1.79; LM 0.582; Sys 0.141
* UAAGAA (pool 3.00) -> IR 1.75; LM 0.0797; Sys 0.0447
* UUGCUA (pool 3.56) -> IR 4.27; LM 0.209; Sys 0.161
* ACGAAA (pool 0.0136) -> IR 0; LM 0.0111; Sys 0
* UUGUCA (pool 4.81) -> IR 11.1; LM 3.98; Sys 60.0
* UGAACA (pool 1.21) -> IR 0.469; LM 0.0672; Sys 0.0117
* UCAUAA (pool 2.39) -> IR 0.592; LM 0.0948; Sys 0.0313
* UUUUGA (pool 5.72) -> IR 12.4; LM 1.38; Sys 0.328
* UAGAUA (pool 5.00) -> IR 5.12; LM 0.472; Sys 0.0826
* AUAAAA (pool 0.0136) -> IR 0; LM 0; Sys 0
* UUGCGA (pool 5.15) -> IR 3.44; LM 0.360; Sys 0.0505
* GGCAUA (pool 0.0136) -> IR 0; LM 0; Sys 0
* UCUGCA (pool 1.82) -> IR 0.935; LM 0.0767; Sys 0.0167
* UAUGUA (pool 6.42) -> IR 2.81; LM 0.0726; Sys 0.0561

Excerpt, the final 4 entries:

| sequence | pool | IR | LM | Sys |
|---|---|---|---|---|
| UUGCGA | 5.15 | 3.44 | 0.360 | 0.0505 |
| GGCAUA | 0.0136 | 0 | 0 | 0 |
| UCUGCA | 1.82 | 0.935 | 0.0767 | 0.0167 |
| UAUGUA | 6.42 | 2.81 | 0.0726 | 0.0561 |

Wild type was 39.4 per thousand in the pool and the most common sequence in every sample (inoculated region 155, 124, 130; leaf margin 823, 907, 920; systemic leaves 805, 787, 933).
Sequences that differ at fixed positions probably stem from PCR or sequencing errors, and defective variants can be carried along by functional ones.
Samples held 30,013 to 65,426 reads, so the smallest values rest on one or two reads.